Anti-infective test results gathered from many reports (values: NIAID ChemDB through PubChem).

Shared fields: whole-cell or culture tests; agent: HIV-1; read-out: fold resistance

An empty or dashed field is not shown. Rows are shuffled and stem from different studies. Fold resistance: result on the changed form divided by that on wild type.

compound | cell line | changes | read by | strain | value
Nc1ccn([C@H]2CC[C@@H](CO)O2)c(=O)n1 | CEM + CEM-SS | RT-Y181C | RT activity | N119 nevirapine-resistant (RT Y181C) | 3.03
COc1ccc2c(c1)N(C(=O)OC(C)C)[C@@H](CSC)C(=S)N2 | CEM | RT-G190E | p24 | IIIB | >10000
C[C@H](COc1cc(N)nc(N)n1)OCP(=O)(O)O | CEM | RT-A62V V75I F77L Q151M M184V | syncytia | Clinical isolate HA20.17 | 2.35
Nc1nc2c(ncn2[C@H]2CO[C@@H](CO)O2)c(=O)[nH]1 |  | RT-M41L Y188L T215Y |  | RT-41L 188L 215Y | 0.29
Cc1cn([C@@H]2O[C@H](CO[Si](C)(C)C(C)(C)C)C3(OS(=O)(=O)C=C3N)[C@H]2O[Si](C)(C)C(C)(C)C)c(=O)n(C)c1=O | CEM | RT-V106A | p24 | IIIB | 91.7
CC(C)CN(C[C@@H](O)[C@H](Cc1ccccc1)NC(=O)O[C@H]1CCOC1)S(=O)(=O)c1ccc(N)cc1 | MT-4 | L10I G48V I54V A71V I84V L90M SQV resistant |  | NL4-3 | 5
CC(C)CN(C[C@@H](O)[C@H](Cc1ccccc1)NC(=O)O[C@@H]1[C@@H]2CCCO[C@@H]2O[C@H]1C)S(=O)(=O)c1ccc(N)cc1 | PBMC | PR-L10I K14R R41K M46I I54V L63P A71V V82A L90M I93L | p24 | TM | 10
COC(=O)c1cc2c(c(OC)c1-c1ccc(N(C)C)cc1)OCO2 | C8166 | E138K | antigen | NL4-3 | 34
CCN(c1nc(F)ccc1NC(C)(C)C)C1CCN(C(=O)c2cc3cc(NC(=O)N4CCN(C)CC4)ccc3[nH]2)CC1 | MT-2 | D437N | p24 / ELISA | IIIB | 1.5
CC(C)CN(C[C@@H](O)[C@H](Cc1ccccc1)NC(=O)O[C@H]1CO[C@H]2OCC(F)(F)[C@H]21)S(=O)(=O)c1ccc(N)cc1 | MT-4 | M46I I50V N38K M36I GRL05010-resistant |  | NL4-3 | 10
CC(=O)Nc1cccc2c1nc(-c1c(F)cccc1F)n2Cc1c(F)cccc1F | MT-4 | RT-V108I | cytopathic effect / MTT |  | 17.1
CC(C)=CCN1Cc2cc(Cl)cc3[nH]c(=S)n(c23)C[C@@H]1C | CEM | RT-M184I | p24 | IIIB | 1
CCCc1c(C)[nH]c(=O)c(N(C)C)c1Cc1cc(C)cc(C)c1 | MT-4 | RT-Y181C | cytopathic effect / MTT | Recombinant | 1.99
O=C1c2ccccc2C(=O)N1CCOC(=S)N(C(=O)c1ccccc1)c1ccccc1 | MT-4 | RT-K103N Y181C | cytopathic effect / MTT | A17 | >250
Fc1cccc(F)c1Cn1c(-c2c(F)cccc2F)nc2c(Br)cccc21 | MT-4 | RT-K103N | cytopathic effect / MTT |  | 20.4
O=C1c2ccccc2C(=O)N1CCOC(=S)N(C(=O)c1cccs1)c1ccc(Cl)cc1 | MT-4 | RT-Y181C | cytopathic effect / MTT | N119 nevirapine-resistant (RT Y181C) | >12500
CCCN(C)c1c(Cc2cc(C)cc(C)c2)c(CC)c(C)[nH]c1=O | MT-4 | RT-Y181C | cytopathic effect / MTT | Recombinant | 24.8
Cc1cn([C@H]2C=C[C@@H](CO)O2)c(=O)[nH]c1=O | PBMC | MDR | p24 | MM | 6
Cc1cn([C@H]2C[C@H](N=[N+]=[N-])[C@@H](CO)O2)c(=O)[nH]c1=O | MT-2 | D437N | p24 / ELISA | IIIB | 1.6
Cc1occc1C(=S)Nc1ccc(Cl)c(/C=N/OC(C)(C)C)c1 | CEM | RT-K103N | p24 | IIIB | ≥20
COC(=O)N[C@H](C(=O)N[C@@H](Cc1ccccc1)[C@@H](O)CN(Cc1ccc(-c2ccccn2)cc1)NC(=O)[C@@H](NC(=O)OC)C(C)(C)C)C(C)(C)C | MT-4 | L10I G48V I54V A71V I84V L90M SQV resistant |  | NL4-3 | >250
Nc1cccc2c1nc(-c1c(F)cccc1F)n2Cc1c(F)cccc1F | MT-4 | RT-L74V | cytopathic effect / MTT |  | 0.6
CC(C)(C)NC(=O)[C@@H]1C[C@@H]2CCCC[C@@H]2CN1C[C@@H](O)[C@H](Cc1ccccc1)NC(=O)[C@H](CC(N)=O)NC(=O)c1ccc2ccccc2n1 | PBMC | MDR | p24 | MM | 93
O=c1[nH]cnc2c1ncn2[C@H]1CC[C@@H](CO)O1 | MT-4 | RT-M41L D67N K70R T215Y K219Q | p24 | XM-AZT-resistant | 1.6
Cc1cn([C@H]2C[C@H](N=[N+]=[N-])[C@@H](CO)O2)c(=O)[nH]c1=O | PBMC | MDR | p24 | JSL | 28
CC(C)CN(C[C@@H](O)[C@H](Cc1ccccc1)NC(=O)O[C@H]1[C@H]2CCCO[C@H]2O[C@@H]1C)S(=O)(=O)c1ccc(N)cc1 | PBMC | PR-L10I K14R R41K M46I I54V L63P A71V V82A L90M I93L | p24 | TM | 8
Cc1cn([C@H]2C[C@H](N=[N+]=[N-])[C@@H](CO)O2)c(=O)[nH]c1=O | MT-4 | RT-T69SSS L210W T215Y | p24 | XM-T69SSS | 3850
C[C@H](Cn1cnc2c(N)ncnc21)OCP(=O)(O)O | CEM | RT-M41L V118I L210W T215Y | syncytia | Clinical isolate C19 | 25.3
CCc1cccc2c1nc(-c1c(F)cccc1F)n2Cc1c(F)cccc1F | MT-4 | RT-K101E | cytopathic effect / MTT |  | 17.1
Nc1ncnc2c1ncn2CCOCP(=O)(O)O | CEM | RT-A62V V75I F77L Q151M M184V | syncytia | Clinical isolate HA20.17 | 6
C[C@H]1O[C@@H]2OCCC[C@@H]2[C@@H]1OC(=O)N[C@@H](Cc1ccccc1)[C@H](O)CN1C[C@H]2CCCC[C@H]2C[C@H]1C(=O)NC(C)(C)C | PBMC | PR-L10I K14R R41K M46I I54V L63P A71V V82A L90M I93L | p24 | TM | >32
Cc1c(N)nc(N)nc1OCCOCP(=O)(O)O | CEM | RT-S68G K70T V75I F77L K103N F116Y Q151M K219R | syncytia | Clinical isolate L6.5 | 4.03
O=C1c2ccccc2C(=O)N1CCOC(=S)N(C(=O)c1ccco1)c1ccc(Cl)cc1 | MT-4 | RT-K103R V179D P225H | cytopathic effect / MTT | IIIB | >14300

The last 4 rows once more:

{"compound": "Nc1ncnc2c1ncn2CCOCP(=O)(O)O", "cell line": "CEM", "changes": "RT-A62V V75I F77L Q151M M184V", "read by": "syncytia", "strain": "Clinical isolate HA20.17", "value": "6"}
{"compound": "C[C@H]1O[C@@H]2OCCC[C@@H]2[C@@H]1OC(=O)N[C@@H](Cc1ccccc1)[C@H](O)CN1C[C@H]2CCCC[C@H]2C[C@H]1C(=O)NC(C)(C)C", "cell line": "PBMC", "changes": "PR-L10I K14R R41K M46I I54V L63P A71V V82A L90M I93L", "read by": "p24", "strain": "TM", "value": ">32"}
{"compound": "Cc1c(N)nc(N)nc1OCCOCP(=O)(O)O", "cell line": "CEM", "changes": "RT-S68G K70T V75I F77L K103N F116Y Q151M K219R", "read by": "syncytia", "strain": "Clinical isolate L6.5", "value": "4.03"}
{"compound": "O=C1c2ccccc2C(=O)N1CCOC(=S)N(C(=O)c1ccco1)c1ccc(Cl)cc1", "cell line": "MT-4", "changes": "RT-K103R V179D P225H", "read by": "cytopathic effect / MTT", "strain": "IIIB", "value": ">14300"}